The values below come from US20060115815A1 (priority 2002, published 2006).

The test system of assay [1] is recombinant HIV-1 strain, protease 8K/46I/90M. Nature of the assay: Cross-resistance profile assay, mutant 8K/46I/90M. The class given is cell-based.
Assay [2] concerns recombinant HIV-1 strain, protease 30N/50S/82I/88D. Nature of the assay: Cross-resistance profile assay, mutant 30N/50S/82I/88D. In kind it is cell-based.
Assay [3] relates to recombinant HIV-1 strain, protease 10R/46I/82T/84V. In words: Cross-resistance profile assay, mutant 10R/46I/82T/84V.
Assay [4] deals with recombinant HIV-1 strain, protease 46I/47V/50V. Nature of the assay: Cross-resistance profile assay, mutant 46I/47V/50V. In kind it is cell-based.
Assay [5] deals with recombinant HIV-1 strain, protease 54V/71V/82S. In words: Cross-resistance profile assay, mutant 54V/71V/82S.
Assay [6] deals with recombinant HIV-1 strain, protease 10F/46I/71V/82T/90M. In words: Cross-resistance profile assay, mutant 10F/46I/71V/82T/90M. The class given is cell-based.
The test system of assay [7] is recombinant HIV-1 strain, protease 48V/54V/71V/82S. In words: Cross-resistance profile assay, mutant 48V/54V/71V/82S. In kind it is cell-based.
Assay [8] relates to recombinant HIV-1 strain, protease 10I/48V/54V/82A. Nature of the assay: Cross-resistance profile assay, mutant 10I/48V/54V/82A.
The subject of assay [9] is recombinant HIV-1 strain, protease 46I/84A. In words: Cross-resistance profile assay, mutant 46I/84A.

In the case of `CCCCOC(=O)C(C)NP(=O)(COc1ccc(CC(NC(=O)OC2COC3OCCC23)C(O)CN(CC(C)C)S(=O)(=O)c2ccc(OC)cc2)cc1)NC(C)C(=O)OCCCC` (stereo not drawn) [GS-16503], the “Fold Change in EC50 Relative to WT HIV-1” value in [1] is 1.2; in assay [2], 0.6; in assay [3], 1; in [4], 3.3; in assay [5], 0.9; in assay [6] it was 1. Moreover, the “Fold Change in EC50 Relative to WT HIV-1” value in assay [7] is on record as 0.5; in assay [8], 0.4; in assay [9] it was 1.
On to `CCOC(=O)C(C)NP(=O)(COc1ccc(CC(NC(=O)OC2COC3OCCC23)C(O)CN(CC(C)C)S(=O)(=O)c2ccc(OC)cc2)cc1)Oc1ccccc1` (stereo not drawn) [GS-16571], for which the “Fold Change in EC50 Relative to WT HIV-1” value in assay [1] turned out to be 1.8; in assay [2] it was 0.7; in assay [3] it was 0.6; in assay [4], 0.8; in assay [5] it was 0.6; in assay [6], 0.8. Further, the “Fold Change in EC50 Relative to WT HIV-1” value in assay [7] was 0.2; in assay [8], 0.3; in [9], 1.
